This passage reports Km, kcat and kcat/Km results from paper PMC10022506.

This data set has as its system CC(=O)C(=O)O. As to the kind of experiment: purified protein. The conditions noted are these: apparent, 100 mM formaldehyde, 1 mM Mg2+, 50 mM CHES pH 9.0, 45 °C.

Turning to PaADL (Pseudomonas aeruginosa; L241A), the Km worked out at 68 ± 7.8 mM, the kcat is 7.02 s⁻¹ and the kcat/Km was 103 M⁻¹ s⁻¹.

Regarding “PaADL (Pseudomonas aeruginosa; L241A/V121A)”, the Km turned out to be 52 ± 3.8 mM, the kcat came to 7.55 s⁻¹ and the kcat/Km came out at 147 M⁻¹ s⁻¹.

On to PaADL (Pseudomonas aeruginosa; V121A), for which the Km came out at 41 ± 3.1 mM, the kcat amounted to 6.55 s⁻¹ and the kcat/Km stood at 158 M⁻¹ s⁻¹.
